# Article PMC6886523 (Nature chemical biology, 2017)
# Test system: M. marinum MmTrpA^G65S
# Settings: MmTrpA^G65S strain, 5 d treatment
smiles,measurement,value
"N#C[C@@H]1N[C@@H](CO)[C@H]1c1ccc(-c2ccccc2F)cc1 [BRD4592, (2R,3S,4R)-3-(2′-fluoro-[1,1′-biphenyl]-4-yl)-4-(hydroxymethyl)azetidine-2-carbonitrile]",effect of treatment on resistant mutant in zebrafish,not affected
